Results of unrelated studies side by side (data: NIAID ChemDB).

All rows: growth or infection tests; organism: Aspergillus niger; measure: zone

Zone: diameter of growth inhibition. Lines come from different laboratories, so protocols vary. Blank or dashed fields: not listed here.

SMILES,dose,strain or isolate,method,result
Cc1nc2ccccc2n(CC(=O)NN2C(=O)CSC2c2ccccc2Cl)c1=O,100 µg/mL,-,-,11 mm
Cc1ccc(C2=NNc3c4ccccc4c4c5cc(Cl)ccc5nc-4n3C2)cc1,12.5 µg/mL,MTCC 281,agar diffusion / visual reading,6 mm
Cc1nc2ccccc2n(CC(=O)NN2C(=O)CSC2c2ccccc2O)c1=O,50 µg/mL,-,-,8 mm
CS(=O)(=O)c1nc(N)c(C#N)c(-c2ccc(Cl)cc2)n1,25 µg/mL,MTCC 282,agar diffusion,19 mm
CN(C)c1ccc(C=NNC(=O)c2snnc2C(F)(F)F)cc1,100 µg/mL,MTCC 1344,agar diffusion / agar,0 mm
CS(=O)(=O)c1nc(N)c(C#N)c(-c2ccccc2[N+](=O)[O-])n1,100 µg/mL,MTCC 282,agar diffusion,22 mm
CC(C)n1c(/C=C/C=Nn2cn[nH]c2=S)c(-c2ccc(F)cc2)c2ccccc21,100 µg/mL,-,-,10 mm
Cc1ccc2[nH]c3nc(NNC(=O)c4ccccc4C(=O)O)c4ccccc4c3c2c1,25 µg/mL,MTCC 281,agar diffusion / visual reading,10 mm
OC(Cn1cncn1)(Cn1cncn1)c1ccc(F)cc1F,100 µg/mL,-,-,100 mm
CC(=Nc1cccc2cccc(N=C(C)c3c(O)ccc4c(C)cc(=O)oc34)c12)c1c(O)ccc2c(C)cc(=O)oc12,100 µg/mL,MTCC 1881,-,7 mm
COc1ccc(C2SCC(=O)N2NC(=O)Cn2c(=O)c(C)nc3ccccc32)cc1OC,100 µg/mL,-,-,17 mm
O=C(O)c1ccccc1C(=O)NNc1nc2[nH]c3ccc(Cl)cc3c2c2ccccc12,3.125 µg/mL,MTCC 281,agar diffusion / visual reading,13 mm
O=C(NN=C1CCCCC1)c1snnc1C(F)(F)F,100 µg/mL,MTCC 1344,agar diffusion / agar,0 mm
O=c1[nH]n(-c2nc3[nH]c4ccc(Cl)cc4c3c3ccccc23)c(=O)c2ccccc12,6.25 µg/mL,MTCC 281,agar diffusion / visual reading,4 mm
COc1ccc(C2SCC(=O)N2NC(=O)Cn2c(=O)c(C)nc3ccccc32)cc1O,100 µg/mL,-,-,21 mm
Cc1ccc2nc3n4c(c5ccccc5c-3c2c1)NN=C(c1ccc(Cl)cc1)C4,3.125 µg/mL,MTCC 281,agar diffusion / visual reading,10 mm
CSC1=NC(c2cccc3cc4ccccc4cc23)C(C#N)=C(N)N1,25 µg/mL,MTCC 282,agar diffusion,14 mm
CC(C)=NNC(=O)c1snnc1C(F)(F)F,150 µg/mL,MTCC 1344,agar diffusion / agar,0 mm
O=c1c2ccccc2c(-c2ccccc2)nn1-c1nc2[nH]c3ccc(Cl)cc3c2c2ccccc12,6.25 µg/mL,MTCC 281,agar diffusion / visual reading,9 mm
CC(=NNC(=O)c1snnc1C(F)(F)F)c1ccc(Br)cc1Br,100 µg/mL,MTCC 1344,agar diffusion / agar,0 mm
CC1=C(Cl)C(O)=CC(=O)C12Oc1cc(O)c(Cl)c(C)c1C2=O,100 µg/mL,MTCC 282,agar diffusion,22 mm
Cc1ccc(C2=NNc3c4ccccc4c4c5cc(C)ccc5nc-4n3C2)cc1,12.5 µg/mL,MTCC 281,agar diffusion / visual reading,11 mm

Again, the opening 3 rows:

SMILES	dose	strain or isolate	method	result
Cc1nc2ccccc2n(CC(=O)NN2C(=O)CSC2c2ccccc2Cl)c1=O	100 µg/mL	-	-	11 mm
Cc1ccc(C2=NNc3c4ccccc4c4c5cc(Cl)ccc5nc-4n3C2)cc1	12.5 µg/mL	MTCC 281	agar diffusion / visual reading	6 mm
Cc1nc2ccccc2n(CC(=O)NN2C(=O)CSC2c2ccccc2O)c1=O	50 µg/mL	-	-	8 mm